The source of these data is publication PMC4331664, “Allosteric regulation of the partitioning of glucose-1-phosphate between glycogen and trehalose biosynthesis in Mycobacterium tuberculosis” (Biochimica et Biophysica Acta. General Subjects, 2015).

What all share (assay): purified protein
What all share (conditions): pH 8.0; 37.0 °C

Data set [1] deals with Nc1ncnc2c1ncn2[C@@H]1O[C@H](COP(=O)(O)OP(=O)(O)OP(=O)(O)O)[C@@H](O)[C@H]1O.
Data set [2] has as its system Nc1ncnc2c1ncn2[C@@H]1O[C@H](COP(=O)(O)OP(=O)(O)O[C@H]2O[C@H](CO)[C@@H](O)[C@H](O)[C@H]2O)[C@@H](O)[C@H]1O.
Another data set concerns O=P(O)(O)OP(=O)(O)O.
In data set [3] the test system is O=P(O)(O)O[C@H]1O[C@H](CO)[C@@H](O)[C@H](O)[C@H]1O.

Broadly, the Vmax is the rate approached at saturating substrate. Regarding “ADP-Glc PPase (ADP-glucose pyrophosphorylase) (Mycobacterium tuberculosis H37Rv)”, the figures for the K0.5 in data set [1], in data set [2] and in data set [3] were 1.20 ± 0.08 mM, 0.76 ± 0.09 mM and 1.07 ± 0.09 mM, respectively. Besides, the Vmax in data set [1] amounted to 3.32 µmol/min/mg; in data set [2], 1.41 µmol/min/mg; in the data set on O=P(O)(O)OP(=O)(O)O, 1.41 µmol/min/mg; in data set [3], 3.32 µmol/min/mg.

Take “Tre-6P Sase (trehalose-6-phosphate synthase) (Mycobacterium tuberculosis H37Rv)”: in data set [2], the K0.5 is 0.14 ± 0.01 mM and the Vmax was 1.37 µmol/min/mg.
